The subject of this test is NA of A/Mississippi/03/2001 (H1N1). The test is described as follows: CDC standardised fluorescence-based NA inhibition assay, virus isolate. Particulars: read-out: NAI assay^c / IC50, nM (fold)^d; whole virus; NAI inhibitor printed as oseltamivir.

SMILES strings stand for the structures.

In the case of `CCC(CC)O[C@@H]1C=C(C(=O)O)C[C@H](N)[C@H]1NC(C)=O`, the IC50 was found to be 0.39 nM.

Source of the values: publication PMC5434880, “Monitoring influenza virus susceptibility to oseltamivir using a new rapid assay, iART” (2017).
